Test results taken from PMC10801922 (Proceedings of the National Academy of Sciences of the …, 2024).

Target: SARS-CoV-2 G614 (wild-type) receptor-binding domain (SARS-CoV-2, UniProt P0DTC2)
Assay: cell-based or functional assay

B1: DXP-604 IgG (antibody, V domains shown)
VH: EVQLVESGGGLIQPGGSLRLSCAASGIIVSSNYMTWVRQAPGKGLEWVSVIYSGGSTFYADSVKGRFTISRDNSKNTLYLQMSSLRAEDTAVYYCARDLGPYGMDVWGQGTTVTVSS
VL: DIQLTQSPSFLSASVGDRVTITCRASQGISSDLAWYQQKPGKAPNLLIYAASTLQSGVPSRFSGSGSGTEFTLTISSLQPEDFATYYCQQLNSDLYTFGQGTKLEIK
  neutralisation of authentic SARS-CoV-2 G614, IC50: 0.3 nM
